Data on 13 compounds can be found in article PMC7956476, “Quinoline Functionalized Schiff Base Silver (I) Complexes: Interactions with Biomolecules and In Vitro Cytotoxicity, Antioxidant and Antimicrobial Activities” (Molecules, 2021).

Molecules are shown by their SMILES. Several values for one entry are separate records, joined by “and”; a condition that tells them apart may be missing. Identical values can stand only once.

This data set concerns CT-DNA-EB adduct. Briefly: Fluorescence competitive displacement of ethidium bromide from CT-DNA. The following applies: number of binding sites. Details: species or system calf. The source says:
The Stern–Volmer plot approach was used based on the fact that the Stern–Volmer plots for Q1–Q15 (Figure 5c), were linear an indication of only one mechanism for the quenching fluorescence, i.e., either dynamic or static. […] (1) Ksv=Kqτo where Ksv, Kq, and τo represent Stern–Volmer quenching constant, bimolecular quenching constant, and an average lifetime of the fluorophore in the absence of the quencher, respectively. τₒ normally takes about 10^−8 s in biomacromolecules.
The double-logarithmic Equation (2) was used in determining the binding constant of complexes Q1–Q15 and CT-DNA. (2) logFo−F/F=logKb+n logQ
A competitive displacement study was carried out using fluorescence spectroscopy between CT-DNA pre-treated with ethidium bromide (EB) and complexes Q1–Q15 to establish the complexes′ actual mode of binding to CT-DNA. […] The competitive luminescence displacement assay was done using a modified method. Pre-treated 15 µM solution of EB with 15 µM of CT-DNA was prepared in a phosphate buffer of pH 7.2 and left to equilibrate for 30 min. Keeping CT-DNA-EB concentrations constant, different concentrations (0–20 µM) of the complexes were added at 8 min incubation interval at room temperature. The fluorescence quenching ability of CT-DNA bound EB by the complexes were recorded in the wavelength range of 530–700 nm with an excitation wavelength at 525 nm at 25 °C. (6) Fo/F=1+KSVQ=1+KqτoQ
A Stern–Volmer (Equation (6)) was used to evaluate the CT-DNA-EB fluorescence quenching of the complexes. Where Fo and F denote the relative fluorescence intensities of CT-DNA in the absence and presence of the quencher, Ksv, Stern–Volmer quenching constant, [Q], quencher concentration, Kq, bimolecular quenching constant and τo, average lifetime of the fluorophore in the absence of the quencher which is typically equal to 10^−8 s in biomacromolecules.
As for `C(=NCc1cccs1)c1ccc2ccccc2n1.C(=NCc1cccs1)c1ccc2ccccc2n1.[Ag+].[O-][Cl+3]([O-])([O-])[O-]` [Complex Q10, [Ag(L5)2]ClO4], the CT-DNA-EB-Complex n was ~1 and 1.31.

Consider `[Ag+].[O-][Cl+3]([O-])([O-])[O-].c1ccc2nc(-c3nc4ccccc4s3)ccc2c1.c1ccc2nc(-c3nc4ccccc4s3)ccc2c1` [Complex Q7, [Ag(L2)2]ClO4], for which the CT-DNA-EB-Complex n turned out to be 1.11.

On to `Cc1ccc(N=Cc2ccc3ccccc3n2)cc1.Cc1ccc(N=Cc2ccc3ccccc3n2)cc1.[Ag+].[O-][Cl+3]([O-])([O-])[O-]` [Complex Q9, [Ag(L4)2]ClO4], for which the CT-DNA-EB-Complex n was determined as 1.30.

In turn, `C(=NCc1cccs1)c1ccc2ccccc2n1.C(=NCc1cccs1)c1ccc2ccccc2n1.O=[N+]([O-])[O-].[Ag+]` [Complex Q5, [Ag(L5)2]NO3] showed a CT-DNA-EB-Complex n of 1.15.

`C(=NCc1cccs1)c1ccc2ccccc2n1.C(=NCc1cccs1)c1ccc2ccccc2n1.O=S(=O)([O-])C(F)(F)F.[Ag+]` [Complex Q15, [Ag(L5)2]CF3SO3] showed a CT-DNA-EB-Complex n of 1.30.

`Clc1ccc(N=Cc2ccc3ccccc3n2)cc1.Clc1ccc(N=Cc2ccc3ccccc3n2)cc1.O=[N+]([O-])[O-].[Ag+]` [Complex Q3, [Ag(L3)2]NO3] returned a CT-DNA-EB-Complex n of 1.29.

In turn, `Cc1ccc(N=Cc2ccc3ccccc3n2)cc1.Cc1ccc(N=Cc2ccc3ccccc3n2)cc1.O=[N+]([O-])[O-].[Ag+]` [Complex Q4, [Ag(L4)2]NO3] gave a CT-DNA-EB-Complex n of 1.17.

`Cc1ccc(N=Cc2ccc3ccccc3n2)cc1.Cc1ccc(N=Cc2ccc3ccccc3n2)cc1.O=S(=O)([O-])C(F)(F)F.[Ag+]` [Complex Q14, [Ag(L4)2]CF3SO3] displayed a CT-DNA-EB-Complex n of 1.28.

In turn, `Clc1ccc(N=Cc2ccc3ccccc3n2)cc1.Clc1ccc(N=Cc2ccc3ccccc3n2)cc1.O=S(=O)([O-])C(F)(F)F.[Ag+]` [Complex Q13, [Ag(L3)2]CF3SO3] had a CT-DNA-EB-Complex n of 1.27.

Consider `O=S(=O)([O-])C(F)(F)F.[Ag+]` [AgCF3SO3, silver trifluoromethanesulfonate, reference compound], for which the CT-DNA-EB-Complex n is reported as 1.15.

The compound `O=[N+]([O-])[O-].[Ag+].c1ccc2nc(-c3nc4ccccc4s3)ccc2c1.c1ccc2nc(-c3nc4ccccc4s3)ccc2c1` [Complex Q2, [Ag(L2)2]NO3] showed a CT-DNA-EB-Complex n of 1.27.

Turning to `O=S(=O)([O-])C(F)(F)F.[Ag+].c1ccc2nc(-c3nc4ccccc4s3)ccc2c1.c1ccc2nc(-c3nc4ccccc4s3)ccc2c1` [Complex Q12, [Ag(L2)2]CF3SO3], the CT-DNA-EB-Complex n is on record as 1.19.

Turning to `Clc1ccc(N=Cc2ccc3ccccc3n2)cc1.Clc1ccc(N=Cc2ccc3ccccc3n2)cc1.[Ag+].[O-][Cl+3]([O-])([O-])[O-]` [Complex Q8, [Ag(L3)2]ClO4], the CT-DNA-EB-Complex n was 1.09.
